Measurements published in patent US7256028B2, “Methods for screening compounds that modulate lipid metabolism” (Xenon Genetics Inc., priority 2000, dated 2007).

Legend:
[1] = tested on: whole cells of Saccharomyces cerevisiae; assay: Cell density (O.D.600) and substrate radioactivity recovered in whole yeast incubated with inhibitor; format: cell-based
[2] = tested on: spheroplasts of Saccharomyces cerevisiae; assay: Cell density (O.D.600) and substrate radioactivity recovered in spheroplasts incubated with inhibitor
Description: Total lipids were extracted and analyzed as described in Example 6.

CCCOC(=O)c1cc(O)c(O)c(O)c1 [n-propyl gallate, 3,4,5-Trihydoxybenzoic acid propyl ester]
% radioactivity recovered ([1]; n-propyl gallate 1.7 mM, pTh5009.1, without inhibitor 0.5): 0.5% | % radioactivity recovered ([1]; n-propyl gallate 3.5 mM, pTh5009.1): 0.8% | % radioactivity recovered ([1]; n-propyl gallate 7.0 mM, pTh5009.1): 0.7% | % radioactivity recovered ([1]; n-propyl gallate 7.0 mM, pYr5014.1, without inhibitor 0.5): 0.9% | % radioactivity recovered ([1]; n-propyl gallate 14.0 mM, pYr5014.1): 0.6% | % radioactivity recovered ([2]; n-propyl gallate 0.25 mM, pTh5009.1, without inhibitor 9.0): 9.5% | % radioactivity recovered ([2]; n-propyl gallate 0.25 mM, pYr5014.1, without inhibitor 10.7): 9.0% | % radioactivity recovered ([2]; n-propyl gallate 0.50 mM, pTh5009.1): 9.5% | % radioactivity recovered ([2]; n-propyl gallate 1.00 mM, pTh5009.1): 9.8% | % radioactivity recovered ([2]; n-propyl gallate 1.00 mM, pYr5014.1): 8.3% | % radioactivity recovered ([2]; n-propyl gallate 2.00 mM, pTh5009.1): 9.3% | % radioactivity recovered ([2]; n-propyl gallate 2.00 mM, pYr5014.1): 8.6% | % radioactivity recovered ([2]; n-propyl gallate 4.00 mM, pTh5009.1): 8.9% | % radioactivity recovered ([2]; n-propyl gallate 4.00 mM, pYr5014.1): 7.6% | % radioactivity recovered ([2]; n-propyl gallate 8.00 mM, pTh5009.1): 4.9% | % radioactivity recovered ([2]; n-propyl gallate 8.00 mM, pYr5014.1): 3.6% | effect on uptake of substrate (radioactivity recovered in cells) ([2]; n-propyl gallate between 0.7-4.0 mM): not affecting the uptake of substrate
